Measurements published in PMC3097154, “Antiviral activity of α-helical stapled peptides designed from the HIV-1 capsid dimerization domain” (Retrovirology, 2011).
Positions of bridges follow the written chain, without caps; N, C: chain ends. Non-standard residues stand in square brackets, D forms with d. Residues, ends and D or L forms follow the SMILES beside them. S5 = C=CCCC[C@](C)(N)C(=O)O

System: wild type CTD (wtCTD) of HIV-1 CA
Assay: ITC dilution of CTD dimers in presence of peptide
Type: binding
Settings: pH 7.3
Description: Dilution of CTD by sequential ITC injections into buffer, pH 7.3, 30°;C gave a series of endothermic heat pulses (Figure 4) consistent with dissociation of protein oligomers modeled as dimers, with dimer dissociation constant (Kdiss) ~15 μM and dissociation enthalpy (ΔHdiss) of 10.7 kcal mole^-1. […] For such a mechanism, the apparent dimer dissociation constant should depend on the free peptide (inhibitor) concentration ([I]) and binding affinity (KI) as follows: [drawing 1]
or an approximate form that might be valid at high inhibitor concentrations: [drawing 2]
where Ci is the total peptide inhibitor concentration in the mixture. This analysis is, however, further complicated by apparent self-association of the peptide (see NMR section) that reduces the availability of free monomer (lower [I]) at higher concentrations and thus leads to underestimation of peptide binding affinities and a concentration dependence of apparent Ki.
The influence of the peptides on dimer dissociation of wild type CTD (wtCTD) was investigated by ITC (MicroCal VP-ITC) following established protocols. Proteins were exhaustively dialyzed against the 25 mM sodium phosphate buffer (pH 7.3) prior to experimental measurements. In a typical experiment, the ITC injection syringe was loaded with 250 μM protein, dissolved in dialysis buffer or dialysis buffer/peptide mixture and the calorimetric cell (ca. 1.4 ml active volume) initially contained only the identical buffer mixture. Typically titrations consisted of 28 injections of 10 μl, with 240-s equilibration between injections. The thermodynamic parameters were obtained and data were analyzed using MicroCal Origin 7.0 software, using an updated and corrected (June 2008) version of the dissociation analysis procedure, validated by comparison with earlier analysis methods.

With `CSCC[C@@H]1NC(=O)[C@H](Cc2c[nH]c3ccccc23)NC(=O)[C@@](C)(NC(=O)[C@H](CCCCN)NC(=O)[C@@H](NC(=O)[C@H](C)NC(=O)[C@H](CCC(N)=O)NC(=O)[C@H](C)N)C(C)C)CCC/C=C\CCC[C@@](C)(C(=O)N[C@H](C(=O)N[C@@H](CC(C)C)C(=O)N[C@@H](CC(C)C)C(=O)N[C@H](C(=O)N[C@@H](C)C(=O)N[C@@H](CCCCN)C(=O)N[C@@H](CCCCN)C(=O)N[C@@H](CCCCN)C(=O)O)C(C)C)[C@@H](C)O)NC(=O)[C@H]([C@@H](C)O)NC1=O` [NYAD-203] (H-AQAVK[S5]WMT[S5]TLLVAKKK-OH; staple (Z) 6-10; N-terminus and C-terminus assumed) the ΔHdiss (CI 50 μM NYAD-203, 30°C) was 9.1 (±0.3) kcal mole^-1, the ΔHdiss (CI 200 μM NYAD-203, 30°C) was 10.8 (±0.2) kcal mole^-1 and the ΔHdiss (CI 350 μM NYAD-203, 30°C) was 10.9 (±0.2) kcal mole^-1.
